Anti-infective test results gathered from many reports (values: NIAID ChemDB through PubChem).

All rows: growth or infection tests; organism: Herpes simplex virus 2; measure: EC50

ECn: concentration that inhibits the pathogen or its effect by n%. Blank or dashed fields: not listed here. Rows are shuffled and stem from different studies.

SMILES	strain or isolate	cells	read by	value
Cc1cccc2c1OP(=O)(OC[C@H]1O[C@@H](n3cc(/C=C/Br)c(=O)[nH]c3=O)C[C@@H]1OC(=O)[C@H](C)N)OC2	G (TK+)	VERO	plaque count	>128 µg/mL
O=C(O)Cc1cc(O)ccc1O	G	E6SM	cytopathic effect	4 µg/mL
Cc1cccc2c1OP(=O)(OC[C@H]1O[C@@H](n3cc(/C=C/Br)c(=O)[nH]c3=O)C[C@@H]1OC(=O)CN)OC2	G (TK+)	VERO	plaque count	>128 µg/mL
CC1=C(C/C=C(\C)CCCC(C)CCCC(C)CCCC(C)C)C(=O)c2ccccc2C1=O	-	-	plaque count	210 µM
Nc1ncnc2c1ccn2[C@@H]1O[C@H](CO)[C@H](O)[C@H]1O	196	PRK	cytopathic effect	0.07 µg/mL
O=c1[nH]c(=O)n([C@H]2C[C@H](O)[C@@H](CO)O2)cc1/C=C/Br	G	E6SM	cytopathic effect	200 µg/mL
CC(=O)O[C@H]1C[C@H](n2cc(/C=C/Br)c(=O)[nH]c2=O)O[C@@H]1COP1(=O)OCc2cccc(C)c2O1	G (TK+)	VERO	plaque count	>128 µg/mL
Nc1nc(N)c2ncn(CCOCP(=O)(O)O)c2n1	3 strains	Primary rabbit kidney cells	cytopathic effect	0.7 µg/mL
N#Cc1cn([C@@H]2O[C@H](CO)C[C@H]2O)c2ncnc(N)c12	G	PRK	cytopathic effect	≥0.4 µg/mL
O=c1[nH]c(=O)n([C@H]2C[C@H](O)[C@@H](CO)O2)c[c]1[Hg+]	HG-25	HELA TK-	virus yield	0.148 µg/mL
O=c1[nH]c(=O)n([C@H]2O[C@@H](CO)C[C@H]2F)cc1Br	-	VERO	-	>100 µM
Nc1nc(Cl)c2ncn(C[C@H]3CC[C@@H](CO)C3)c2n1	G	E6SM	cytopathic effect	>1 µg/mL
N#Cc1cn([C@@H]2O[C@H](CO)[C@@H](O)[C@@H]2O)c2ncnc(N)c12	G	PRK	cytopathic effect	2 µg/mL
Nc1nccc2c1ncn2[C@H]1C[C@H](O)[C@@H](CO)O1	G	HEL	-	>100 µM
O=C(O)P(=O)(O)O	HS-47	HEL	cytopathic effect	21.3 µg/mL
C[C@H](N)C(=O)O[C@H]1C[C@H](n2cc(/C=C/Br)c(=O)[nH]c2=O)O[C@@H]1COP1(=O)OCc2ccccc2O1	G (TK+)	VERO	plaque count	>128 µg/mL
Nc1nccc2c1ncn2[C@@H]1C[C@H](CO)[C@@H](O)[C@H]1O	G	E6SM	cytopathic effect	200 µg/mL
Nc1ncnc2c1ncn2C[C@@H](CO)OCP(=O)(O)O	PCV-resistant/B	HEL	cytopathic effect	0.025 µg/mL
O=c1ccn([C@@H]2O[C@H](CO)C[C@@H]2F)c(=O)[nH]1	-	VERO	-	>100 µM
COc1cc(C[C@H]2C(=O)OC[C@@H]2Cc2ccc3c(c2)OCO3)cc(OC)c1OC	G	MRC-5	-	>11.9 µg/mL
Cc1cc(O)cc(O)c1CC(=O)O	G	E6SM	cytopathic effect	40 µg/mL
C[C@H](N)C(=O)OCP(=O)(OC[C@H]1O[C@@H](n2ccc3c(N)ncnc32)C[C@@H]1O)Oc1ccccc1	G	HEL	-	>100 µM
Nc1ncc2ncn(CCOCP(=O)(O)O)c2n1	-	Primary rabbit kidney cells	-	10 µg/mL
CC1=C(/C=C/C(C)=C/C=C/C(C)=C/CO)C(C)(C)CCC1	-	-	plaque count	10 µM
O=C(O)CP(=O)(O)O	HS-44	HEL	cytopathic effect	10.2 µg/mL
O=C(O)P(=O)(O)O	G	HEL	cytopathic effect	12.5 µg/mL
OCCOC(CO)n1cnc2cc(Cl)c(Cl)cc21	G	E6SM	cytopathic effect	>200 µg/mL
COP(=O)(CC(=O)O[C@H]1C[C@H](n2cc(CCCl)c(=O)[nH]c2=O)O[C@@H]1CO)OC	K979	VERO	cytopathic effect	>22.7 µM
Nc1ncnc2c1ncn2C[C@H](O)CO	LYONS	PRK	cytopathic effect	>100 µg/mL
OC[C@H]1O[C@@H](n2cnc3cc(Cl)c(Cl)cc32)[C@H](O)[C@H]1O	G	E6SM	cytopathic effect	>4 µg/mL
COC(=O)CN(CC(=O)OC)P(=O)(OC[C@H]1O[C@@H](n2cnc3c(N)ccnc32)C[C@@H]1O)Oc1ccccc1	G	HEL	-	>100 µM
CC1=C(C)C(CO)(CO)C[C@H]1n1cnc2c(N)ncnc21	-	VERO	cytopathic effect	>100 µg/mL
O=c1ccn(CC(CO)OCP(=O)(O)O)c(=O)[nH]1	3 strains	Primary rabbit kidney cells	cytopathic effect	>400 µg/mL
CC(C)[Si]1(C(C)C)OC[C@H]2O[C@@H](n3cnc4cc(Cl)c(Cl)cc43)[C@H](O)[C@H]2O[Si](C(C)C)(C(C)C)O1	G	E6SM	cytopathic effect	>10 µg/mL
NC(=O)c1cn([C@@H]2O[C@H](CO)C[C@H]2O)c2ncnc(N)c12	G	PRK	cytopathic effect	≥10 µg/mL
O=C(NCCc1c[nH]c2ccccc12)C1=Cc2ccncc2CC1	E194	HFF	plaque count	3.1 µM
Nc1ncnc2c1ncn2CCOCP(=O)(O)O	3 strains	Primary rabbit kidney cells	cytopathic effect	7 µg/mL
O=c1[nH]cnc2c1ncn2C[C@@H](CO)OCP(=O)(O)O	-	Primary rabbit kidney cells	-	>400 µg/mL
O=[N+]([O-])c1cc(Cl)c(Cl)cc1[N+](=O)[O-]	G	E6SM	cytopathic effect	>1 µg/mL
O=C(O)CP(=O)(O)OC[C@H]1O[C@@H](n2cc(CCCl)c(=O)[nH]c2=O)C[C@@H]1O	K979	VERO	cytopathic effect	>232 µM
Cc1cn([C@@H]2O[C@H](CO)[C@@H](O)[C@@H]2O)c(=O)[nH]c1=O	HS-47	HEL	cytopathic effect	0.25 µg/mL
Nc1nc(N)c2ncn(CCOCP(=O)(O)O)c2n1	-	Primary rabbit kidney cells	-	0.7 µg/mL
Nc1nc(N)c2ncn(CCOCP(=O)(O)O)c2n1	G	HEL	cytopathic effect	0.8 µg/mL
Nc1nc(=O)n([C@H]2O[C@@H](CO)C[C@H]2F)cc1F	-	VERO	-	>100 µM
Nc1nc2c(nnn2C[C@H]2CC[C@@H](CO)C2)c(=O)[nH]1	G	E6SM	cytopathic effect	>200 µg/mL
CC1=C(C)[C@](CO)(c2ccccc2)C[C@H]1n1ccc(N)nc1=O	-	VERO	cytopathic effect	>100 µg/mL
O=C(O[C@@H]1Cc2c(O)cc(O)cc2O[C@@H]1c1cc(O)c(O)c(O)c1)c1cc(O)c(O)c(O)c1	-	VERO	-	2.6 µM
Nc1ccn(C[C@@H](CO)OCP(=O)(O)O)c(=O)n1	ACV-resistant	HEL	cytopathic effect	0.1 µg/mL
Nc1ncnc2c1ncn2C[C@H](O)CO	G	PRK	cytopathic effect	>400 µg/mL
O=c1ccn([C@@H]2O[C@@H](CO)C[C@H]2F)c(=O)[nH]1	-	VERO	-	>100 µM
Nc1ncnc2c1ncn2C[C@H]1COP(=O)(O)CO1	3 strains	Primary rabbit kidney cells	cytopathic effect	4 µg/mL
Nc1nc2c(ncn2C[C@H]2CC[C@@H](CO)C2)c(=O)[nH]1	G	E6SM	cytopathic effect	>400 µg/mL
Cc1c(CC(=O)O)ccc(O)c1O	G	E6SM	cytopathic effect	40 µg/mL
O=c1[nH]c(=O)n([C@H]2C[C@H](O)[C@@H](COP3(=O)OCc4ccccc4O3)O2)cc1/C=C/Br	G (TK+)	VERO	plaque count	>128 µg/mL
O=C(O)c1cc(O)ccc1O	G	E6SM	cytopathic effect	20 µg/mL
COC(=O)OP(=O)(CO[C@H](CO)Cn1cnc(N)nc1=O)OC(=O)OC	G strain	-	cytopathic effect	0.097 µg/mL
CC(C)(C)C(=O)OCOP(=O)(COCCn1cnc2c(N)ncnc21)OCOC(=O)C(C)(C)C	G	VERO	plaque count	0.6 µM
Nc1nc2c(ncn2COCCO)c(=O)[nH]1	G	HEL	-	0.4 µM
C[C@@H](N)C(=O)O[C@H]1C[C@H](n2cc(/C=C/Br)c(=O)[nH]c2=O)O[C@@H]1COP1(=O)OCc2ccccc2O1	G (TK+)	VERO	plaque count	>128 µg/mL
Nc1nc2ncn(COCCCl)c2c(=O)[nH]1	G	VERO	cytopathic effect	>128 µg/mL
NC(=O)c1csc([C@@H]2O[C@H](CO)[C@@H](O)[C@H]2O)n1	MS	HeLa	cytopathic effect	4 µg/mL
O=c1[nH]c(=O)n([C@H]2C[C@H](O)[C@@H](CO)O2)c[c]1[Hg+].O=c1cc[nH]c(=S)[nH]1	HG-25	KB	virus yield	4.608 µg/mL
Nc1nccc2c1ncn2[C@@H]1C[C@H](CO)[C@@H](O)[C@H]1O	LYONS G 196	PRK	cytopathic effect	≥300 µg/mL
O=c1[nH]c(=O)n([C@@H]2O[C@@H](CO)C[C@H]2F)cc1F	-	VERO	-	>100 µM
OC[C@H]1O[C@@H](n2cnc3cc(Cl)c(Cl)cc32)[C@@H](O)[C@@H]1O	G	E6SM	cytopathic effect	>10 µg/mL
COc1cc(C2c3cc4c(cc3C[C@H]3COC(=O)[C@H]23)OCO4)cc(OC)c1OC	G	MRC-5	-	0.011 µg/mL
O=c1[nH]c(=O)n([C@H]2C[C@H](O)[C@@H](CO)O2)cc1I	K979	VERO	cytopathic effect	>2.8 µM
Nc1nc2c(ncn2COC(CO)CO)c(=O)[nH]1	HS-47	HEL	cytopathic effect	0.0015 µg/mL
CC(C)(C)C(=O)OCOC(=O)CN(CC(=O)OCOC(=O)C(C)(C)C)P(=O)(OC[C@H]1O[C@@H](n2cnc3c(Cl)nccc32)C[C@@H]1O)Oc1ccccc1	G	HEL	-	>20 µM
Cc1cccc2c1OP(=O)(OC[C@H]1O[C@@H](n3cc(/C=C/Br)c(=O)[nH]c3=O)C[C@@H]1OC(=O)[C@@H](N)CC(C)C)OC2	G (TK+)	VERO	plaque count	>128 µg/mL
Cc1c(C)c2c(c(C)c1O)CC[C@@](C)(CCC[C@H](C)CCC[C@H](C)CCCC(C)C)O2	-	-	plaque count	60 µM
CC(C)C(=O)O[C@H]1C[C@H](n2cc(/C=C/Br)c(=O)[nH]c2=O)O[C@@H]1COP1(=O)OCc2ccccc2O1	G (TK+)	VERO	plaque count	>128 µg/mL
C[C@H](N)C(=O)OCP(=O)(OC[C@H]1O[C@@H](n2cc(/C=C/Br)c(=O)[nH]c2=O)C[C@@H]1O)Oc1ccccc1	G	HEL	-	>20 µM
N#Cc1cn([C@@H]2O[C@H](CO)[C@@H](O)[C@H]2O)c2ncnc(N)c12	G	PRK	cytopathic effect	≥0.04 µg/mL
Nc1ncnc2c1ncn2[C@@H]1O[C@@H](CO)CC1F	-	VERO	-	>100 µM
COc1cc([C@@H]2c3cc(O)c(O)cc3C[C@H]3COC(=O)[C@@H]32)cc(OC)c1OC	G	MRC-5	-	0.252 µg/mL
Cc1cccc2c1OP(=O)(OC[C@H]1O[C@@H](n3cc(/C=C/Br)c(=O)[nH]c3=O)C[C@@H]1OC(=O)[C@@H](N)C(C)C)OC2	G (TK+)	VERO	plaque count	>128 µg/mL
COP(=O)(CC(=O)OC[C@H]1O[C@@H](n2cc(I)c(=O)[nH]c2=O)C[C@@H]1O)OC	K979	VERO	cytopathic effect	>5.9 µM
CC(C)(C)C(=O)OCOC(=O)CN(CC(=O)OCOC(=O)C(C)(C)C)P(=O)(OC[C@H]1O[C@@H](n2ccc3c(N)ncnc32)C[C@@H]1O)Oc1ccccc1	G	HEL	-	>100 µM

11 of the rows above, restated:

SMILES	strain or isolate	cells	read by	value
O=C(O[C@@H]1Cc2c(O)cc(O)cc2O[C@@H]1c1cc(O)c(O)c(O)c1)c1cc(O)c(O)c(O)c1	-	VERO	-	2.6 µM
CC1=C(C)C(CO)(CO)C[C@H]1n1cnc2c(N)ncnc21	-	VERO	cytopathic effect	>100 µg/mL
O=C(NCCc1c[nH]c2ccccc12)C1=Cc2ccncc2CC1	E194	HFF	plaque count	3.1 µM
COc1cc(C[C@H]2C(=O)OC[C@@H]2Cc2ccc3c(c2)OCO3)cc(OC)c1OC	G	MRC-5	-	>11.9 µg/mL
Nc1ncnc2c1ncn2[C@@H]1O[C@@H](CO)CC1F	-	VERO	-	>100 µM
COP(=O)(CC(=O)OC[C@H]1O[C@@H](n2cc(I)c(=O)[nH]c2=O)C[C@@H]1O)OC	K979	VERO	cytopathic effect	>5.9 µM
O=c1[nH]c(=O)n([C@H]2C[C@H](O)[C@@H](CO)O2)c[c]1[Hg+]	HG-25	HELA TK-	virus yield	0.148 µg/mL
O=C(O)CP(=O)(O)OC[C@H]1O[C@@H](n2cc(CCCl)c(=O)[nH]c2=O)C[C@@H]1O	K979	VERO	cytopathic effect	>232 µM
COC(=O)CN(CC(=O)OC)P(=O)(OC[C@H]1O[C@@H](n2cnc3c(N)ccnc32)C[C@@H]1O)Oc1ccccc1	G	HEL	-	>100 µM
NC(=O)c1csc([C@@H]2O[C@H](CO)[C@@H](O)[C@H]2O)n1	MS	HeLa	cytopathic effect	4 µg/mL
COP(=O)(CC(=O)O[C@H]1C[C@H](n2cc(CCCl)c(=O)[nH]c2=O)O[C@@H]1CO)OC	K979	VERO	cytopathic effect	>22.7 µM